Anti-infective test results gathered from many reports (values: NIAID ChemDB through PubChem).

Shared fields: tests in culture; agent: HIV-1; cells: CEM; measure: inhibition

Percent inhibition refers to the dose given; in toxicity tests it is the harm to the cells. An empty or dashed field is not shown. Rows are shuffled and stem from different studies.

compound,strain or isolate,read by,conditions,tested at,result
O=P(O)(O)OP(=O)(O)OP(=O)(O)OP(=O)(O)O,IIIB,cytopathic effect / MTT,-,100 µg/mL,37%
Cc1ccc(S(=O)(=O)O)cc1.N/C(=N\N=C\c1ccc(O)c(O)c1)NO,IIIB,cytopathic effect,-,10 µg/mL,0%
COc1ccc(C2C(C#N)=C(N)N3C(=C2C#N)Oc2ccccc23)cc1,-,cytopathic effect / XTT,-,20 µM,5.78%
O=C1CSC2=NC(=O)C3(NN12)c1ccccc1-c1ccccc13,-,cytopathic effect / XTT,-,63 µM,24.42%
Cc1cn([C@H]2C[C@H](O)[C@@H](COC(=O)CCCCCCCCCCBr)O2)c(=O)[nH]c1=O,-,cytopathic effect / XTT,-,2 µM,10.4%
S=C1NNC2(C(=S)N1)c1ccccc1-c1ccccc12,-,cytopathic effect / XTT,-,0.63 µM,10.22%
N[C@H]1CONC1=O,N1T,antigen,-,5 µg/mL,88%
COc1cc(/C=N/N=C(\N)NO)ccc1O.Cc1ccc(S(=O)(=O)O)cc1,IIIB,cytopathic effect,-,10 µg/mL,0%
Cc1cn([C@H]2C[C@H](NCC#N)[C@@H](CO)O2)c(=O)[nH]c1=O,LAV,cytopathic effect,-,100 µM,0%
O=C1CS/C(=C/c2nc3ccccc3o2)N1,-,cytopathic effect / XTT,-,2.01 µM,6.47%
O=C(O)CCCCCCCCCCCCn1nccn1,-,cytopathic effect,-,1 µg/mL,12%
CC(=O)NC1C=CN(c2cn(C(O)CCCP(=O)(O)O)nn2)C(=O)N1,IIIB,-,-,100 µM,0%
Nc1ccc(S(=O)(=O)N(CC2CCCC2)C[C@@H](O)[C@H](Cc2ccccc2)NC(=O)O[C@H]2CCOC2)cc1N,IIIB,p24,-,0.1 µM,90%
Cc1nnc(NC(=S)Nc2ccccc2)nc1/C=C/c1ccc(N(C)C)cc1,-,cytopathic effect / XTT,-,0.2 µM,33.01%
COc1ccc(/C=N/N=C(\N)NO)c(OC)c1.Cc1ccc(S(=O)(=O)O)cc1,IIIB,cytopathic effect,-,10 µg/mL,0%
O=C1N=C2SC=C(NC(=S)Nc3ccccc3)N2NC12c1ccccc1-c1ccccc12,RF,cytopathic effect / XTT,-,63 µM,24.42%
Cc1cn([C@H]2C[C@H](NC#N)[C@@H](CO)O2)c(=O)[nH]c1=O,LAV,cytopathic effect,-,100 µM,0%
CC/C=C\C/C=C\C/C=C\CCCCCCCC(=O)OC[C@@H](CO[C@H]1O[C@H](CS(=O)(=O)O)[C@@H](O)[C@H](O)[C@H]1O)OC(=O)CCCCCCCCCCCCCCC,-,cytopathic effect / XTT,-,100 µg/mL,100%
O=C(O)CCCCCCCCCCCCn1ncnn1,-,cytopathic effect,-,10 µg/mL,16%
CC(=O)N1C(=O)CC(=O)N(c2nnc(C)c(/C=C/c3ccc(N(C)C)cc3)n2)C1=S,-,cytopathic effect / XTT,-,0.317 µM,3.66%
NC1=NNC2(C(N)=N1)c1ccccc1-c1ccccc12,-,cytopathic effect / XTT,-,20 µM,17.87%
Nc1ncnc2c1ncn2Cc1cn(C(O)CP(=O)(O)O)nn1,IIIB,-,-,100 µM,0%
C=CCNC(=O)NC(=O)CSC1=NNC2(C(=O)N1)c1ccccc1-c1ccccc12,RF,cytopathic effect / XTT,-,63 µM,15.14%
C=CSC(NC(=O)[C@H](Cc1ccccc1)NS(=O)(=O)N1CCOCC1)C(=O)N[C@@H](CC1CCCCC1)[C@@H](O)C[C@H](C(=O)NCCCC)C(C)C,IIIB,cytopathic effect / XTT,-,13 µM,14%
CCCCCCCCCCCCCCCCOP(=O)(OC[C@H]1OC(O)[C@@H](O)[C@@H](O)[C@@H]1O)OC[C@H]1O[C@@H](n2cc(C)c(=O)[nH]c2=O)C[C@@H]1N=[N+]=[N-],LAV-Bru,RT activity,26 d,0.2 µM,0%
C=CCNC(=O)NC1=CSC2=NC(=O)C3(NN12)c1ccccc1-c1ccccc13,RF,cytopathic effect / XTT,-,20 µM,12.38%
O=C1NC(SC(SC2=NNC3(C(=O)N2)c2ccccc2-c2ccccc23)=C(SC2=NNC3(C(=O)N2)c2ccccc2-c2ccccc23)SC2=NNC3(C(=O)N2)c2ccccc2-c2ccccc23)=NNC12c1ccccc1-c1ccccc12,-,cytopathic effect / XTT,-,63 µM,37.76%
Cc1cn([C@H]2C[C@H](O)[C@@H](COC(=O)CCCCCCCCCCN=[N+]=[N-])O2)c(=O)[nH]c1=O,-,cytopathic effect / XTT,-,2 µM,6.5%
CC(=O)CCCCCCCCCCCC(=O)O,-,cytopathic effect,-,1 µg/mL,6%
Clc1ccccc1C1SCc2nc3ncccc3n21,RF,cytopathic effect / XTT,-,9.04 µM,14%
Cc1nnc(N)nc1/C=C/c1c(O)ccc2ccccc12,-,cytopathic effect / XTT,-,20 µM,23.94%
CCOP(=O)(CCCC(O)n1cc(N2C=CC(NC(C)=O)NC2=O)nn1)OCC,IIIB,-,-,100 µM,0%
S=C1N=C(Cl)C2(NN1)c1ccccc1-c1ccccc12,RF,cytopathic effect / XTT,-,20 µM,32.82%
N#CC(C(=S)NCc1ccc(Cl)cc1)c1nc2ccccc2o1,-,cytopathic effect / XTT,-,6.34 µM,8.38%
Fc1cccc(F)c1C1SCc2nc3ncccc3n21,RF,cytopathic effect / XTT,-,62 µM,92%
C[n+]1cn(-c2cn(CCP(=O)(O)O)nn2)c(=O)[nH]c1=O,IIIB,-,-,100 µM,0%
CCCCNC(=S)C(C#N)c1nc2ccccc2o1,-,cytopathic effect / XTT,-,20 µM,36.61%
COc1ccc(/C=N/N=C(\N)NO)c(OC)c1C.Cc1ccc(S(=O)(=O)O)cc1,IIIB,cytopathic effect,-,10 µg/mL,46.6%
C=CCNC(=O)NC(=O)CSC1=NNC2(C(=O)N1)c1ccccc1-c1ccccc12,-,cytopathic effect / XTT,-,63 µM,15.14%
CCOP(=O)(OCC)C(O)Cn1cc(-n2cc(C)c(=O)[nH]c2=O)nn1,IIIB,-,-,100 µM,0%
c1ccc(C2SCc3nc4ncccc4n32)cc1,RF,cytopathic effect / XTT,-,384 µM,20%
Nc1nc(=O)n([C@H]2C=C[C@@H](OCP(=O)(O)O)O2)cc1I,IIIB,cytopathic effect / XTT,-,100 µg/mL,39%
Fc1cccc(C2SCc3nc4ncccc4n32)c1,RF,cytopathic effect / XTT,-,4.2 µM,15%
CCOP(=O)(CCn1cc(-n2c[n+](C)c(=O)[nH]c2=O)nn1)OCC,IIIB,-,-,100 µM,0%
COC(=O)N[C@H]1C[C@H](n2cc(C)c(=O)[nH]c2=O)O[C@@H]1CO,LAV,cytopathic effect,-,100 µM,0%
COc1ccc(/C=N/N=C(\N)NO)cc1O.Cc1ccc(S(=O)(=O)O)cc1,IIIB,cytopathic effect,-,10 µg/mL,10%
CCOP(=O)(CCCn1cc(C2N=C3C(N)=NC=NC3N2C)nn1)OCC,IIIB,-,-,100 µM,0%
Cc1cn([C@H]2C[C@H](N=[N+]=[N-])[C@@H](COP(=O)(O)OCCO[C@H]3O[C@H](CO)[C@@H](O)[C@H](O)[C@@H]3O)O2)c(=O)[nH]c1=O,LAV-Bru,RT activity,7 d,5 µM,92%
CCCCCCCCCCCCC(N=[N+]=[N-])C(=O)OC[C@H]1O[C@@H](n2cc(C)c(=O)[nH]c2=O)C[C@@H]1O,-,cytopathic effect / XTT,-,2 µM,9.6%
NC1=NNC2(C(N)=N1)c1ccccc1-c1ccccc12,RF,cytopathic effect / XTT,-,20 µM,17.87%

Repeating the final 5 entries:

compound,strain or isolate,read by,conditions,tested at,result
COc1ccc(/C=N/N=C(\N)NO)cc1O.Cc1ccc(S(=O)(=O)O)cc1,IIIB,cytopathic effect,-,10 µg/mL,10%
CCOP(=O)(CCCn1cc(C2N=C3C(N)=NC=NC3N2C)nn1)OCC,IIIB,-,-,100 µM,0%
Cc1cn([C@H]2C[C@H](N=[N+]=[N-])[C@@H](COP(=O)(O)OCCO[C@H]3O[C@H](CO)[C@@H](O)[C@H](O)[C@@H]3O)O2)c(=O)[nH]c1=O,LAV-Bru,RT activity,7 d,5 µM,92%
CCCCCCCCCCCCC(N=[N+]=[N-])C(=O)OC[C@H]1O[C@@H](n2cc(C)c(=O)[nH]c2=O)C[C@@H]1O,-,cytopathic effect / XTT,-,2 µM,9.6%
NC1=NNC2(C(N)=N1)c1ccccc1-c1ccccc12,RF,cytopathic effect / XTT,-,20 µM,17.87%